PubChem BioAssay AID1259414, Drosophila RNAi Screening Center, 2018
The deposit covers about 24,000 reagents; shown is a random part of those that have a named target and a result. Over the whole deposit, about 1,210 (5%) are marked active. 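Inactive calls also include excluded dsRNAs with several or no targets, genes unexpressed in JW18, and well A1, regardless of score.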 A number with no mark means an inactive call. The numbers tell different reagents against one gene apart.

Aim: 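Host factors increasing or decreasing Wolbachia levels in cultured fly cells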 (primary screen)
System: Drosophila JW18 cells infected with Wolbachia
Reagent: long dsRNA against Drosophila genes, 0.25 µg dsRNA per well of a 384-well plate
Time to read-out: 5 days
Challenge: cells persistently infected with Wolbachia before knock-down; no added drug
Detection: 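Imaged fluorescence in situ signal for Wolbachia 23S rRNA per DAPI-counted host cell, given as a robust z-score within each plate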
Scale: Wolbachia per cell robust z: higher = more Wolbachia per host cell than the plate typical
Active means: 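Hit when robust z is 1.5 or more, or -1.5 or less, in at least two of three replicates; excludes dsRNAs with several or no targets, genes not expressed in JW18 and well A1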

| gene | dsRNA no. | Wolbachia per cell robust z, rep 1 | Wolbachia per cell robust z, rep 2 | Wolbachia per cell robust z, rep 3 |
| --- | --- | --- | --- | --- |
| CG31805 (GeneID 318952) | 1 | 1.31 | -0.497 | 0.607 |
| Orc2 (GeneID 41703) | 1 | -0.676 | 1.28 | 0.556 |
| CG6230 (GeneID 34546) | 1 | 1.17 | 0.678 | -0.553 |
| Veneno (GeneID 41000) | 1 | -0.571 | 1.04 | 0.686 |
| CG14182 (GeneID 40181) | 1 | -2.25 (active) | -1.75 | 1.14 |
| CG5078 (GeneID 40276) | 1 | -0.477 | -1.77 | 0.194 |
| CG34423 (GeneID 5740313) | 1 | 0.0667 | 0.4 | 0.217 |
| CG8204 (GeneID 36728) | 1 | 1.05 | 0.927 | -0.519 |
| Dll (GeneID 37973) | 1 | 0.0451 | 0.495 | 0.152 |
| Dll (GeneID 37973) | 2 | -0.00491 | -0.675 | 0.296 |
| CG31178 (GeneID 42575) | 1 | -1.96 | -0.243 | -1.57 |
| HP4 (GeneID 38887) | 1 | -8.64 (active) | -0.211 | -2.13 |
| CG5280 (GeneID 39033) | 1 | -0.346 | 0.223 | 1.27 |
| CG5280 (GeneID 39033) | 2 | -1.54 | -0.267 | -2.47 |
| Rrp1 (GeneID 33500) | 1 | 1.01 | -1.17 | 0.748 |
| Rrp1 (GeneID 33500) | 2 | 0.233 | -0.238 | 0.461 |
| Surf4 (GeneID 41864) | 1 | -0.763 | -0.666 | 0.513 |
| CG34266 (GeneID 5740465) | 1 | 0.0116 | -1.14 | -1.01 |
| CG43691 (GeneID 14462585) | 1 | -0.555 | -3.23 | -3.85 |
| CG43691 (GeneID 14462585) | 2 | -0.0266 | -1.22 | -0.036 |
| CG18336 (GeneID 50236) | 1 | 0.432 | -2.51 | -0.792 |
| CG9164 (GeneID 32467) | 1 | 0.639 | -0.0624 | -0.377 |
| CG9164 (GeneID 32467) | 2 | -0.974 | -9.39 | 0.603 |
| CG9164 (GeneID 32467) | 3 | -9.25 | -0.478 | -1.2 |
| Qsox2 (GeneID 42583) | 1 | -0.0301 | 0.612 | 1.65 |
| Qsox2 (GeneID 42583) | 2 | -0.628 | 1.53 | 1.14 |
| eRF1 (GeneID 40240) | 1 | 0.656 | 0.845 | 0.801 |
| eRF1 (GeneID 40240) | 2 | -1.91 | 0.792 | 0.317 |

3 of these entries, set out differently.
Dll (GeneID 37973) #2
- Wolbachia per cell robust z, rep 1: -0.00491
- Wolbachia per cell robust z, rep 2: -0.675
- Wolbachia per cell robust z, rep 3: 0.296

CG31178 (GeneID 42575)
- Wolbachia per cell robust z, rep 1: -1.96
- Wolbachia per cell robust z, rep 2: -0.243
- Wolbachia per cell robust z, rep 3: -1.57

HP4 (GeneID 38887)
- Wolbachia per cell robust z, rep 1: -8.64 (active)
- Wolbachia per cell robust z, rep 2: -0.211
- Wolbachia per cell robust z, rep 3: -2.13
